Source: publication doi:10.1101/2022.06.27.497816 (bioRxiv, 2022)

By UniProt entry, the sequences of proteins in these tests, tags left out. Where a name states a change or a piece, a line headed by the entry shows the natural chain unless it says otherwise.
UniProt Q9Y530: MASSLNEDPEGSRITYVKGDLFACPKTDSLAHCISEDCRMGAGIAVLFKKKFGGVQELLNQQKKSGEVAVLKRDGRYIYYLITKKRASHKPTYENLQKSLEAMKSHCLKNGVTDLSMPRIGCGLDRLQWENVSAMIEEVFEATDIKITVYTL

Target: human macrodomain TARG1 (human, UniProt Q9Y530 1-152)
Assay: AlphaScreen or HTRF
Conditions: both partners purified

## ARTKQTARKS [ADPr-conjugated biotin peptide ARTK(Bio)QTARK(Aoa-RADP)S]
  binding result: binds
